Common to all, as to assay: BLI
For assay [1], the target named is T1, CCHFV strain Turkey-2004 GP38 (CCHFV, strain Turkey-2004, strain).
T1 chain: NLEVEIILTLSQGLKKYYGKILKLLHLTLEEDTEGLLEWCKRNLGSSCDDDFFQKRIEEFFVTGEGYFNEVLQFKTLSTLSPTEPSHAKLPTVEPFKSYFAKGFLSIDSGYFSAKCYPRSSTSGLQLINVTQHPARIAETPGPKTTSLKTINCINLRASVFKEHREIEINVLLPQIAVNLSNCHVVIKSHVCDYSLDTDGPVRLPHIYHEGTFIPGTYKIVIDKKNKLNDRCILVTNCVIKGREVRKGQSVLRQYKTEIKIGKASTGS

Assay [2] addresses CCHFV strain IbAr10200 GP38 (Crimean-Congo hemorrhagic fever virus …, UniProt Q8JSZ3).
Assay [3] has as its target T2, Turkey2004 GP38-his/strep (CCHFV, strain Turkey-2004, strain).
T2 chain: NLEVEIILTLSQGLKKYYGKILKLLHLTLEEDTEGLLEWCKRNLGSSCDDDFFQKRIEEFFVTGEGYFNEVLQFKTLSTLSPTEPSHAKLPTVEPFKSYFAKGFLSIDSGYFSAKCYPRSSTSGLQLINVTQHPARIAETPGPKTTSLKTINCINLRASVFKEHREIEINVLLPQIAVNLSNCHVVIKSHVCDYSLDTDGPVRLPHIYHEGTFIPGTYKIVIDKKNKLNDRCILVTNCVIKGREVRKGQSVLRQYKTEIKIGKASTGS

The target in the next assay is T3, CCHFV Turkey-2004 GP38 (CCHFV, strain Turkey-2004, strain).
T3 chain: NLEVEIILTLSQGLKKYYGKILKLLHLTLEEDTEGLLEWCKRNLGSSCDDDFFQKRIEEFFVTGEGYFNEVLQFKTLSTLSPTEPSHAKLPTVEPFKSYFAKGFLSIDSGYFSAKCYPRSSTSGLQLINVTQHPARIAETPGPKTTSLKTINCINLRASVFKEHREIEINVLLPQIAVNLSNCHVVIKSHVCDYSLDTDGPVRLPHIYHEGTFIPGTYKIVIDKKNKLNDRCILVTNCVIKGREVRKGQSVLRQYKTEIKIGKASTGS

The next assay deals with CCHFV IbAr10200 GP38 (Crimean-Congo hemorrhagic fever virus …, UniProt Q8JSZ3).

B1: human chimeric 13G8 mAb (c13G8) (antibody, V domains shown)
VH: DVQLQQSGPGLVAPSQSLSITCTVSGFSLTNYGIHWVRQPPGKGLEWLGVIWAGGYTKYNSALMSRLSMSKDNSKSQVFLKMNSLQTDDTAMYYCARDEVRRDYYAMDHWGQGTTVTVSS
VL: DIQMTQSPAILSASPGEKVTMTCWASSGVSYMHWYQQKPGSSPKPWIFATSNLASGVPARFSGSGSGTSYSLTISRVEAEDAATYYCQQWSFNPLTFGAGTKLEIK
notes: copies: 2 + 2
For the molecule B1, the equilibrium dissociation constant (Kd) in assay [1] amounted to 523 pM; in assay [2], 427 pM.

B2: CC5-17 mAb (antibody, V domains shown)
VH: EVQLVQSGAEVKKPGESLRISCKGSGYSFTSYWIGWVRQMPGKGLEWMGIIYPGDSDTRYSPSFQGQVTISADKSISTAYLQWTSLKASDTAMYYCARQLGGSSFGNYYDSGSYYTAAYWGQGTLVTVSS
VL: DIQMTQSPSSLSASVGDRVTITCRASQSINNYLNWYQQKPGKAPKLLIYAASTLQSGVPSRFSGSGSGTDFTLTISSLQPEDFASYYCQQSYRGTFGQGTKVEFK
notes: copies: 2 + 2
Regarding B2, the binding result in assay [1] and in assay [2] was “binds” throughout.

B3: CC5-17 mAb (antibody, V domains shown)
VH: EVQLVQSGAEVKKPGESLRISCKGSGYSFTSYWIGWVRQMPGKGLEWMGIIYPGDSDTRYSPSFQGQVTISADKSISTAYLQWTSLKASDTAMYYCARQLGGSSFGNYYDSGSYYTAAYWGQGTLVTVSS
VL: DIQMTQSPSSLSASVGDRVTITCRASQSINNYLNWYQQKPGKAPKLLIYAASTLQSGVPSRFSGSGSGTDFTLTISSLQPEDFASYYCQQSYRGTFGQGTKVEFK
As to B3, the binding result (in assay [3]; with CCHFV Turkey-2004 GP38; in the assay with CCHFV IbAr10200 GP38) was “binds” in each case.

Source of the values: article PMC9701186 (Nature Communications, 2022).
